Measured data: PubChem BioAssay AID504761 (Drosophila RNAi Screening Center, 2011)
The screen tested about 22,000 reagents; shown is a random part of those that have a named target and a result. Of all reagents, 116 (0.52%) got an active call. 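Calls depend on retest data that are not deposited; infection was ranked per plate without normalising between plates; the unit of the infection score is not given.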 Names joined by + are all predicted targets of the reagent. Further read-outs or replicates are left out here. Not given: the amount of reagent, the time to read-out.

Screen: 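Genome-wide fly cell screen for genes dengue virus requires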 (primary screen)
Cell system: D.Mel-2 cells from Drosophila
Reagent: long dsRNA against Drosophila genes
Treatment: infection with dengue virus type 2; dose and infection time not stated
Detection: 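Cells stained for dengue envelope protein and imaged; percent of infected cells per well on duplicate plates, ranked by infection, with stained nuclei counted for cell number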
Scale: infection score: higher = more virus-infected cells
Active means: 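Low infection ranks in the two replicates (chance level up to 0.065) followed by a retest with a 1.5-fold or larger significant decrease, p below 0.05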
Meaning of the calls: active = confirmed: knock-down lowers infection; inactive = not picked or not confirmed

The opening 4 records, to show the layout:
no.	predicted target	amplicon	infection score, replicate 1	call
1	Oli (Olig family)	DRSC02866	9.1	inactive
2	Oli (Olig family)	DRSC26246	8.77	inactive
3	CG14881	DRSC15005	16.8	inactive
4	CG14881	DRSC25898	3.79	inactive

Main list, from the first entry:
no.	predicted target	amplicon	infection score, replicate 1	call
1	Oli (Olig family)	DRSC02866	9.1	inactive
2	Oli (Olig family)	DRSC26246	8.77	inactive
3	CG14881	DRSC15005	16.8	inactive
4	CG14881	DRSC25898	3.79	inactive
5	CG9302	DRSC03191	4.39	inactive
6	CG3515	DRSC00609	1.82	inactive
7	CG17375	DRSC02614	1.08	inactive
8	CG17375	DRSC29517	16.7	inactive
9	Pcyt1 (Phosphocholine cytidylyltransferase 1)	DRSC08157	4.05	inactive
10	Pcyt1 (Phosphocholine cytidylyltransferase 1)	DRSC27869	4.54	inactive
11	CG7707	DRSC10903	4.4	inactive
12	CG3604	DRSC00618	1.18	inactive
13	CG1835	DRSC20560	4.38	inactive
14	CG13561	DRSC04199	18.9	inactive
15	IA-2 (IA-2 protein tyrosine phosphatase)	DRSC00304	4.94	inactive
16	IA-2 (IA-2 protein tyrosine phosphatase)	DRSC00652	3.68	inactive
17	IA-2 (IA-2 protein tyrosine phosphatase)	DRSC23335	7.82	inactive
18	IA-2 (IA-2 protein tyrosine phosphatase)	DRSC24588	1.66	inactive
19	IntS3 (Integrator 3)	DRSC21215	4.65	inactive
20	CG7110	DRSC03011	16.9	inactive
21	CG7110	DRSC03012	1.14	inactive
22	gw (gawky)	DRSC17135	1.81	inactive
23	gw (gawky)	DRSC17160	0.65	inactive
24	gw (gawky)	DRSC23497	3.73	inactive
25	Dop1R1 (Dopamine 1-like receptor 1)	DRSC13021	7.67	inactive
26	Dop1R1 (Dopamine 1-like receptor 1)	DRSC16652	2.6	inactive
27	Dop1R1 (Dopamine 1-like receptor 1)	DRSC23514	0.62	inactive
28	Usp32 (Ubiquitin specific protease 32)	DRSC10979	2.59	inactive
29	Rpn11 (Regulatory particle non-ATPase 11)	DRSC03422	1.7	inactive
30	SPoCk (Secretory Pathway Calcium atpase)	DRSC11675	6.05	inactive
31	SPoCk (Secretory Pathway Calcium atpase)	DRSC11706	7.73	inactive
32	SPoCk (Secretory Pathway Calcium atpase)	DRSC11844	3.25	inactive
33	SPoCk (Secretory Pathway Calcium atpase)	DRSC11845	2.27	inactive
34	SPoCk (Secretory Pathway Calcium atpase)	DRSC24007	3.93	inactive
35	mst (misato)	DRSC20582	0.71	inactive
36	ric8b + ric8a	DRSC18104	3.26	inactive
37	Ance-2	DRSC02539	8.67	inactive
38	RhoGEF3 (Rho guanine nucleotide exchange factor 3)	DRSC08351	4.27	inactive
39	RhoGEF3 (Rho guanine nucleotide exchange factor 3)	DRSC08352	1.14	inactive
